Anti-infective test results gathered from many reports (values: NIAID ChemDB through PubChem).

Common to all: tests in culture

An empty or dashed field is not shown. MIC50, MIC90 and the like: level of inhibition, or share of isolates inhibited. Fold resistance has wild type as its base. Percent inhibition refers to the dose given; in toxicity tests it is the harm to the cells. ECn is the concentration giving n% inhibition of infection, replication or growth. Lines come from different laboratories, so protocols vary.

Cc1c(CSc2cccc3ccccc23)cnc2nc(N)nc(N)c12 ; species: Encephalitozoon intestinalis ; measure: inhibition ; cell line: RK-13 ; tested at: 0.1 µg/mL ; value: 4.1%
CCCN(CCC)c1c([N+](=O)[O-])cc(S(N)(=O)=O)cc1[N+](=O)[O-] ; species: Toxoplasma gondii ; measure: EC50 ; strain or isolate: Oryzalin-resistant ; value: 3 µM
C[C@H]1COc2c(N3CCN(C)CC3)c(F)cc3c(=O)c(C(=O)O)cn1c23 ; species: Streptococcus pneumoniae ; measure: MIC ; strain or isolate: 1C1 (PARC mutation SER79TYR) ; value: 2 µg/mL
CCOC(=O)Nc1cc2c(c(N)n1)N=C(c1cccc(OC)c1)CS2 ; species: Encephalitozoon intestinalis ; measure: inhibition ; cell line: RK-13 ; tested at: 10 µg/mL ; value: 74.3%
CC[C@@]1(OC(=O)CN)C(=O)OCc2c1cc1n(c2=O)Cc2c-1nc1cc3c(cc1c2CCl)OCO3 ; species: Saccharomyces cerevisiae ; measure: MIC ; strain or isolate: Mutant ΔERG6 ΔTOP1 ; value: >100 µg/mL
Nc1ncnc2c1ncn2C[C@@H](CO)OCP(=O)(O)O ; species: Epstein-Barr virus ; measure: inhibition ; cell line: P3HR-1 ; tested at: 0.01 µM ; value: 4%
Nc1nc2c(ncn2CCOCP(=O)(O)O)c(=O)[nH]1 ; species: Parainfluenza virus ; measure: EC50 ; method: cytopathic effect ; strain or isolate: C243 (TYPE 3) ; value: 32 µg/mL
C#CC[C@@H](C(=O)N[C@H](/C=C/C(=O)OCC)C[C@@H]1CCNC1=O)n1cccc(NC(=O)c2cc(C)on2)c1=O ; species: Rhinovirus ; measure: EC50 ; method: cytopathic effect / XTT ; strain or isolate: Serotype 3 ; cell line: H1-HELA ; value: 0.021 µM
CC1(C)S[C@@H]2[C@H](NC(=O)[C@H](N)c3ccccc3)C(=O)N2[C@H]1C(=O)O ; species: Haemophilus influenzae ; measure: MIC50 ; strain or isolate: 38 strains (ampicillin-susceptible) ; value: 0.25 µg/mL
CO[C@@H]1[C@@H](OC(N)=O)[C@@H](O)[C@H](Oc2ccc3c(O)c(NC(=O)c4ccc(O)c(CC=C(C)C)c4)c(=O)oc3c2C)OC1(C)C ; species: Epstein-Barr virus ; measure: EC50 ; method: PCR ; cell line: Akata-Bx1 ; value: 68.6 µM
Nc1ncnc2c1ncn2C[C@H](O)CO ; species: Epstein-Barr virus ; measure: inhibition ; cell line: P3HR-1 ; tested at: 0.1 µM ; value: 5%
O=c1cnn([C@@H]2O[C@H](CO)[C@@H](O)[C@H]2O)c(=O)[nH]1 ; species: Dengue virus ; measure: EC50 ; method: virus yield ; strain or isolate: TYPE 2 (NGC) ; cell line: VERO ; value: <2.1 µg/mL
CCCCCCCCCCCCCCCCCCCCCCOCC(C)(COCCCCCCCCCCCCCCCCCCCCCC)CO[C@]1(C(=O)O)C[C@H](OS(=O)(=O)O)[C@@H](NC(C)=O)[C@H]([C@H](OS(=O)(=O)O)[C@@H](COS(=O)(=O)O)OS(=O)(=O)O)O1 ; species: Respiratory syncytial virus ; measure: EC50 ; method: ELISA ; strain or isolate: LONG ; cell line: HEP-2 ; value: 0.2 µM
Nc1nccc2c1ncn2[C@@H]1C=C(CO)[C@@H](O)[C@H]1O ; species: West Nile virus ; measure: EC50 ; method: cytopathic effect ; strain or isolate: NEW YORK ; cell line: VERO ; value: >2.6 µg/mL
C[C@@H](c1nc(-c2ccc(C#N)cc2)cs1)[C@](O)(Cn1cnnc1)c1ccc(F)cc1F ; species: Candida albicans ; measure: MIC ; strain or isolate: Isogenic isolate 8 (25X) ; value: ≤0.008 µg/mL
CC(C)(CO)C(=O)SCCOP(=O)(NCc1ccccc1)OC[C@H]1O[C@@H](n2cnc3c(=O)[nH]c(N)nc32)[C@](C)(O)[C@@H]1O ; species: Hepatitis C virus ; measure: fold resistance ; mutations: T260A ; method: replicon ; strain or isolate: GT1a ; cell line: Replicon cells ; value: 1.7
COc1ccc2cc3[n+](cc2c1OC)CCc1cc2c(cc1-3)OCO2 ; species: Vittaforma corneae ; measure: inhibition ; cell line: RK-13 ; tested at: 0.001 µg/mL ; value: 100%
Nc1ccn([C@@H]2C=C(CO)[C@@H](O)[C@@H]2O)c(=O)n1 ; species: West Nile virus ; measure: EC90 ; method: virus yield ; strain or isolate: NEW YORK ; cell line: MA-104 ; value: 1.4 µg/mL
CC[C@@]1(OC(=O)CN)C(=O)OCc2c1cc1n(c2=O)Cc2cc3ccccc3nc2-1 ; species: Saccharomyces cerevisiae ; measure: MIC ; strain or isolate: JHY6-1C ; value: 6.25 µg/mL
CN(C)[C@@H]1C(=O)C(C(N)=O)=C(O)[C@@]2(O)C(=O)C3=C(O)c4c(O)c(NC(=O)CNC(F)(F)F)cc(F)c4C[C@H]3C[C@@H]12 ; species: Enterococcus faecalis ; measure: EC50 ; method: agar diffusion ; strain or isolate: 159-tet ; value: 4 µg/mL
C[C@H]1NCc2cc(-c3ccc4c(=O)c(C(=O)O)cn(C5CC5)c4c3OC(F)F)ccc21 ; species: Staphylococcus aureus ; measure: MIC90 ; strain or isolate: 25 strains (methicillin-susceptible) ; value: ≤0.06 µg/mL
Nc1nccc2c1ncn2[C@@H]1C[C@H](CO)[C@@H](O)[C@H]1O ; species: Vesicular stomatitis virus ; measure: EC50 ; method: cytopathic effect ; cell line: HeLa ; value: 0.7 µg/mL
O=C[C@@H](CO)O[C@H](C=O)n1ccc(=O)[nH]c1=O ; species: West Nile virus ; measure: EC50 ; method: cytopathic effect ; strain or isolate: NEW YORK ; cell line: VERO ; value: 85 µg/mL
CCc1c2c(nc3ccc(O)cc13)-c1cc3c(c(=O)n1C2)COC(=O)[C@@]3(CC)OC(=O)CN ; species: Saccharomyces cerevisiae ; measure: MIC ; strain or isolate: JHY6-1C ; value: >100 µg/mL
COc1cc(C[C@H](C)[C@H](C)Cc2ccc(O)c(O)c2)ccc1O ; species: Candida parapsilosis ; measure: MIC100 ; method: broth dilution ; strain or isolate: CCC 124-2000 ; value: 125 µg/mL
O=C1N(Cc2ccc(CO)cc2)[C@H](Cc2ccccc2)[C@H](O)[C@@H](O)[C@@H](Cc2ccccc2)N1Cc1ccc(CO)cc1 ; species: HIV-1 ; measure: inhibition ; method: p24 ; strain or isolate: A012B pre ; cell line: PBMC ; tested at: 0.07 µM ; value: 90%
COc1ccc(C)cc1NCc1cnc2nc(N)nc(N)c2c1C ; species: Encephalitozoon intestinalis ; measure: inhibition ; cell line: RK-13 ; tested at: 1 µg/mL ; value: 68.7%
Nc1ncnc2c1ncn2C[C@H](CO)OCP(=O)(O)O ; species: Adenovirus ; measure: EC50 ; method: cytopathic effect ; strain or isolate: WT 300 (TYPE 5) ; value: 7 µg/mL
CC[C@@]1(O)C(=O)OCc2c1cc1n(c2=O)Cc2cc3ccccc3nc2-1 ; species: Saccharomyces cerevisiae ; measure: MIC ; strain or isolate: JHY6-1C ; value: >100 µg/mL
Nc1ncn([C@@H]2O[C@H](CO)[C@@H](O)[C@H]2O)c(=O)n1 ; species: West Nile virus ; measure: EC50 ; method: cytopathic effect ; strain or isolate: NEW YORK ; cell line: VERO ; value: >565 µg/mL
O=C(Nc1ncc([N+](=O)[O-])s1)c1ccccc1O ; species: Encephalitozoon intestinalis ; measure: inhibition ; cell line: RK-13 ; tested at: 10 µg/mL ; value: 86.2%
CC[C@@]1(O)C(=O)OCc2c1cc1n(c2=O)Cc2c-1nc1cc3c(cc1c2C)OCO3 ; species: Saccharomyces cerevisiae ; measure: MIC ; strain or isolate: Mutant ΔERG6 ; value: >100 µg/mL
CC(=O)NC[C@H]1CN(c2ccc(N3CCOCC3)c(F)c2)C(=O)O1 ; species: Staphylococcus aureus ; measure: MIC50 ; strain or isolate: 25 strains (ofloxacin-resistant) ; value: 2 µg/mL
Nc1ccn(C[C@@H](CO)OCP(=O)(O)O)c(=O)n1 ; species: Adenovirus ; measure: EC90 ; method: virus yield ; strain or isolate: WT 300 (TYPE 5) ; value: 0.4 µg/mL
O=c1[nH]c(=O)n([C@@H]2O[C@H](CO)[C@@H](O)[C@H]2O)cc1F ; species: West Nile virus ; measure: EC50 ; method: cytopathic effect / visual reading ; strain or isolate: NEW YORK ; cell line: VERO ; value: >0.32 µg/mL
C#Cc1c(C(N)=O)ncn1[C@@H]1O[C@H](CO)[C@@H](O)[C@H]1O ; species: Mumps virus ; measure: EC50 ; method: plaque count ; strain or isolate: ECXH-3 ; cell line: VERO ; value: 1.9 µg/mL
CCOC(=O)Nc1cc2c(c(N)n1)N=C(c1ccccc1)CCN2 ; species: Encephalitozoon intestinalis ; measure: inhibition ; cell line: RK-13 ; tested at: 0.01 µg/mL ; value: 73.2%
C[C@H]1COc2c(N3CCN(C)CC3)c(F)cc3c(=O)c(C(=O)O)cn1c23 ; species: Staphylococcus aureus ; measure: MIC50 ; strain or isolate: 25 strains (methicillin-susceptible) ; value: 0.25 µg/mL
CC[C@@]1(OC(=O)CN)C(=O)OCc2c1cc1n(c2=O)Cc2cc3cc(O)ccc3nc2-1 ; species: Saccharomyces cerevisiae ; measure: MIC ; strain or isolate: JHY6-1C ; value: >100 µg/mL

A second listing of 2 rows from above:

| structure | species | measure | mutations | method | strain or isolate | cell line | tested at | value |
|---|---|---|---|---|---|---|---|---|
| Nc1ncnc2c1ncn2C[C@H](O)CO | Epstein-Barr virus | inhibition | - | - | - | P3HR-1 | 0.1 µM | 5% |
| Nc1nccc2c1ncn2[C@@H]1C[C@H](CO)[C@@H](O)[C@H]1O | Vesicular stomatitis virus | EC50 | - | cytopathic effect | - | HeLa | - | 0.7 µg/mL |